Reference: paper PMC10812672, “Short Antimicrobial Peptide Derived from the Venom Gland Transcriptome of Pamphobeteus verdolaga Increases Gentamicin Susceptibility of Multidrug-Resistant Klebsiella pneumoniae” (Antibiotics, 2023)
Ends that are not written are not given here.

Test system: MDR K. pneumoniae
Type: cell-based, Klebsiella pneumoniae
Description: Given the intermediate resistance to gentamicin, an isobologram analysis was used as a proof-of-concept to evaluate the interaction between PvAMP66 and the antibiotic. The growth inhibition of the clinical isolate was measured using peptide concentrations of 0.10–100 µM, and gentamicin concentrations of 0.10–50 µM (Supplementary Figure S10). Combined IC50 values were calculated and plotted in a graph with a secant line representing the IC50 values for PvAMP66 and gentamicin when used alone (Figure 2a). […] The concentrations adjacent to the aforementioned data point were evaluated. […] Additionally, a Fractional Inhibitory Concentration Index (FICI) of 0.59 was obtained.
For the isobologram analysis concentrations, ranges of 1.56 µM to 200 µM of the peptide and 0.07 µM to 100 µM of the gentamicin were used. The experiments were conducted in triplicate and repeated in two independent assays. The IC50 for each combination was determined using either logarithmic or linear regression. Then, when achieving 50% growth inhibition, the concentrations of the peptide and gentamicin were recorded and used to create an isobologram graph with a ‘peptide concentration’ vs. ‘gentamicin concentration’ plot. Within the graph, both axes were connected in line with an origin at the IC50 value of the peptide and gentamicin alone in the Y and X-axis, respectively. The presence of data distributed below the line indicated a synergistic interaction, data distributed above or close to the line in a parallel fashion represented an additive interaction, and finally, data distributed above the line represented an antagonistic interaction. The fractional inhibitory concentration index was calculated as follows: FICI=Combined MICAntibiotic/MICAntibiotic+Combined MICPeptide/MICPeptide

Compound	fold reduction in the MIC (combination of 4.70 µM gentamicin and 12.50 µM PvAMP66 vs alone) [fold]	fold reduction in the IC50 for gentamicin (combination vs gentamicin alone) [fold]	Fractional Inhibitory Concentration Index (FICI) (PvAMP66 12.50 µM with gentamicin 4.70 µM, additive)
CNC(C)C1CCC(N)C(OC2C(N)CC(N)C(OC3OCC(C)(O)C(NC)C3O)C2O)O1 (stereo not drawn) [Gentamicin, gentamicin]	10.64	10.68	
WKKIKKFF-NH2 [PvAMP66]			0.59
